Anti-infective test results gathered from many reports (values: NIAID ChemDB through PubChem).

Common to all: whole-cell or culture tests

Inhibition is in % at the dose shown (toxicity tests: loss of growth or viability). MIC50, MIC90 and the like: level of inhibition, or share of isolates inhibited. Rows are shuffled and stem from different studies. ECn is the concentration giving n% inhibition of infection, replication or growth.

O=C(O)CP(=O)(O)O ; cells: HEL ; strain or isolate: BVaraU-resistant ; agent: Varicella zoster virus ; read by: plaque count ; endpoint: EC50 ; result: 5.8 µg/mL
O=C1N(Cc2ccc(CO)cc2)[C@H](Cc2ccccc2)[C@H](O)[C@@H](O)[C@@H](Cc2ccccc2)N1Cc1ccc(CO)cc1 ; cells: PBMC ; strain or isolate: Clinical isolate D1 ; agent: HIV-1 ; read by: p24 ; tested at: 0.25 µM ; endpoint: inhibition ; result: 90%
CCOP(=O)(O)CC(OCn1cc(C)c(=O)[nH]c1=O)C(C)O ; strain or isolate: Sicilian strain Vero cells ; agent: Sandfly fever virus ; read by: cytopathic effect ; endpoint: EC50 ; result: >320 µg/mL
C(#Cc1ccc(C#Cc2cccs2)s1)c1cccs1 ; cells: 3T3-L1 ; agent: Mouse cytomegalovirus ; read by: plaque count ; endpoint: EC50 ; result: 0.016 µg/mL
C[C@@H]1CN(c2c(F)c(N)c3c(=O)c(C(=O)O)cn(C4CC4)c3c2F)C[C@H](C)N1 ; strain or isolate: 25 strains (ofloxacin-resistant) ; agent: Staphylococcus aureus ; endpoint: MIC90 ; result: 32 µg/mL
NC(=O)c1c[se]c([C@@H]2O[C@H](CO)[C@@H](O)[C@H]2O)n1 ; cells: VERO ; strain or isolate: TYPE 3/ABNEY ; agent: Reovirus ; read by: cytopathic effect ; endpoint: EC50 ; result: 1 µg/mL
c1coc(-c2ccc(-c3cccs3)s2)c1 ; cells: 3T3-L1 ; agent: Mouse cytomegalovirus ; read by: plaque count ; endpoint: EC50 ; result: 0.094 µg/mL
Nc1nc2c(ncn2CCC(CO)CO)c(=O)[nH]1 ; cells: HEL ; strain or isolate: OKA ; agent: Varicella zoster virus ; read by: plaque count ; endpoint: EC50 ; result: 0.56 µg/mL
c1cc(-c2ccsc2)cs1 ; cells: 3T3-L1 ; agent: Mouse cytomegalovirus ; read by: plaque count ; endpoint: EC50 ; result: >1 µg/mL
C#CC[C@@H](C(=O)N[C@H](/C=C/C(=O)OCC)C[C@@H]1CCNC1=O)n1cccc(NC(=O)c2cc(C)on2)c1=O ; cells: H1-HELA ; strain or isolate: Serotype 49 ; agent: Rhinovirus ; read by: cytopathic effect / XTT ; tested at: 0.057 µM ; endpoint: inhibition ; result: 90%
Nc1nc(NC(c2ccccc2)c2ccccc2)c2ncn(CCOCP(=O)(O)O)c2n1 ; cells: P3HR-1 ; agent: Epstein-Barr virus ; read by: hybridisation ; endpoint: EC50 ; result: 1.3 µg/mL
OCCC#Cc1ccc(-c2ccccc2)s1 ; cells: 3T3-L1 ; agent: Mouse cytomegalovirus ; read by: plaque count ; endpoint: EC50 ; result: 0.312 µg/mL
CO[C@@H]1C[C@@H](C[C@H]2CC[C@H](C)[C@H](CC(O)CCC(C)/C=C(\C)C(=O)O)O2)OC2(O[C@](C)([C@H]3CC[C@@](C)([C@@H]4O[C@@H]([C@H]5O[C@@](O)(CO)[C@H](C)C[C@@H]5C)C[C@@H]4C)O3)C[C@H]2C)[C@@H]1C ; strain or isolate: RH ; agent: Toxoplasma gondii ; read by: uracil uptake / radiometric ; tested at: 0.1 µg/mL ; endpoint: inhibition ; result: 0%
O=C(O)P(=O)(O)O ; cells: HEL ; strain or isolate: PCV-resistant/B ; agent: Varicella zoster virus ; read by: plaque count ; endpoint: EC50 ; result: 38.6 µg/mL
Nc1nc(Cl)nc2c1ncn2[C@H]1CC[C@@H](CO)O1 ; cells: MDBK ; strain or isolate: IRB-LA ; agent: Bovine herpesvirus 1 ; read by: cytopathic effect ; endpoint: EC50 ; result: >50 µM
c1coc(-c2ccc(-c3ccco3)s2)c1 ; cells: 3T3-L1 ; agent: Mouse cytomegalovirus ; read by: plaque count ; endpoint: EC50 ; result: 1 µg/mL
Nc1nc(N)c2ncn(C[C@@H](CF)OCP(=O)(O)O)c2n1 ; cells: P3HR-1 ; agent: Epstein-Barr virus ; read by: hybridisation ; endpoint: EC50 ; result: 50 µg/mL
Nc1cc(Cl)nc2c1ncn2[C@H]1C[C@H](O)[C@@H](CO)O1 ; cells: MDBK ; strain or isolate: IRB-LA ; agent: Bovine herpesvirus 1 ; read by: cytopathic effect ; endpoint: EC50 ; result: >50 µM
COc1cc([C@@H]2c3cc4c(cc3[C@@H](O[C@@H]3O[C@@H]5CO[C@@H](c6cccs6)O[C@H]5[C@H](O)[C@H]3O)[C@H]3COC(=O)[C@H]23)OCO4)cc(OC)c1O ; agent: Pneumocystis carinii ; setting: 7 d ; tested at: 100 µg/mL ; endpoint: inhibition ; result: 97%
CN(C)c1ncnc2c1ncn2CCOCP(=O)(O)O ; cells: P3HR-1 ; agent: Epstein-Barr virus ; read by: hybridisation ; endpoint: EC50 ; result: 1.1 µg/mL
OC[C@H]1O[C@@H](n2cnc3c(NC4CC4)nc(Cl)nc32)[C@H](O)[C@@H]1O ; cells: Sheep chondrocytes G81092 ; strain or isolate: KV1772 ; agent: Maedi-visna virus ; read by: cytopathic effect ; endpoint: EC50 ; result: 15 µM
Cc1ccc(-c2ccc(C#CCCO)s2)s1 ; cells: 3T3-L1 ; agent: Mouse cytomegalovirus ; read by: plaque count ; endpoint: EC50 ; result: 0.003 µg/mL
Nc1nc2c(ncn2COC(CO)CO)c(=O)[nH]1 ; cells: P3HR-1 ; agent: Epstein-Barr virus ; read by: hybridisation ; endpoint: EC50 ; result: 0.4 µg/mL
OC[C@@H]1CC[C@H](n2cnc3c(NC4CCCCCC4)nc(Cl)nc32)O1 ; cells: MDBK ; strain or isolate: IRB-LA ; agent: Bovine herpesvirus 1 ; read by: cytopathic effect ; endpoint: EC50 ; result: >50 µM
O=P(O)(O)COCCn1cnc2c(N3CCCC3)ncnc21 ; cells: P3HR-1 ; agent: Epstein-Barr virus ; read by: hybridisation ; endpoint: EC50 ; result: 8 µg/mL
Nc1nc(Cl)cc2c1ncn2[C@@H]1O[C@H](CO)C[C@H]1O ; cells: Sheep chondrocytes G81092 ; strain or isolate: KV1772 ; agent: Maedi-visna virus ; read by: cytopathic effect ; endpoint: EC50 ; result: 15 µM
C[C@H]1NCc2cc(-c3ccc4c(=O)c(C(=O)O)cn(C5CC5)c4c3OC(F)F)ccc21 ; strain or isolate: 24 strains (ofloxacin-susceptible) ; agent: Staphylococcus aureus ; endpoint: MIC50 ; result: 0.03 µg/mL
Cc1cn([C@H]2C[C@H](N=[N+]=[N-])[C@@H](CO)O2)c(=O)[nH]c1=O ; cells: P3HR-1 ; agent: Epstein-Barr virus ; read by: hybridisation ; endpoint: EC50 ; result: 10 µg/mL
C=CC#Cc1ccc(-c2ccccc2)s1 ; cells: 3T3-L1 ; agent: Mouse cytomegalovirus ; read by: plaque count ; endpoint: EC50 ; result: 0.5 µg/mL
CC(O)C(CP(=O)(O)O)OCn1ccc(N)nc1=O ; strain or isolate: Sicilian strain Vero cells ; agent: Sandfly fever virus ; read by: cytopathic effect ; endpoint: EC50 ; result: >320 µg/mL
Nc1ccn(C[C@@H](CO)OCP(=O)(O)O)c(=O)n1 ; cells: HEL ; strain or isolate: PCV-resistant/B ; agent: Varicella zoster virus ; read by: plaque count ; endpoint: EC50 ; result: 0.15 µg/mL
Cc1cn([C@H]2C/C(=N\O)[C@@H](CO)O2)c(=O)[nH]c1=O ; cells: P3HR-1 ; agent: Epstein-Barr virus ; read by: hybridisation ; endpoint: EC50 ; result: 1.5 µg/mL
N[C@@H]1CN(c2c(F)cc3c(=O)c(C(=O)O)cn([C@@H]4C[C@@H]4F)c3c2Cl)CC12CC2 ; strain or isolate: 25 strains (methicillin-susceptible) ; agent: Staphylococcus aureus ; endpoint: MIC90 ; result: ≤0.12 µg/mL
OC[C@@H]1C[C@@H](O)[C@H](n2cnc3c(NC4CCCCCC4)ccnc32)O1 ; cells: Sheep chondrocytes G81092 ; strain or isolate: KV1772 ; agent: Maedi-visna virus ; read by: cytopathic effect ; endpoint: EC50 ; result: 0.5 µM
Cc1c(N2C[C@@H](F)[C@@H](C3(N)CC3)C2)c(F)c(N)c2c(=O)c(C(=O)O)cn([C@@H]3C[C@@H]3F)c12 ; strain or isolate: 38 strains (ampicillin-susceptible) ; agent: Haemophilus influenzae ; endpoint: MIC90 ; result: 0.015 µg/mL
Nc1nccc2c1ncn2[C@@H]1C[C@H](CO)[C@@H](O)[C@H]1O ; cells: RK-13 ; agent: Vesicular stomatitis virus ; read by: cytopathic effect ; endpoint: EC50 ; result: 2 µg/mL
OC(Cn1cncn1)(Cn1cncn1)c1ccc(F)cc1F ; strain or isolate: TW 00313 ; agent: Candida albicans ; read by: broth dilution ; endpoint: MIC ; result: 128 µg/mL
CCC(C)n1ncn(-c2ccc(N3CCN(c4ccc(OC[C@H]5CO[C@](Cn6cncn6)(c6ccc(Cl)cc6Cl)O5)cc4)CC3)cc2)c1=O ; strain or isolate: Isogenic isolate 2 MDR1 (12X) ; agent: Candida albicans ; endpoint: MIC ; result: 0.015 µg/mL
OC[C@H]1O[C@@H](n2cnc3c(NC4CCCCCC4)ncnc32)[C@H](O)[C@@H]1O ; cells: Sheep chondrocytes G81092 ; strain or isolate: KV1772 ; agent: Maedi-visna virus ; read by: cytopathic effect ; endpoint: EC50 ; result: 15 µM
NC(=O)c1nc(F)c[nH]c1=O ; cells: MDCK ; strain or isolate: Yamagata/3/96 ; agent: Influenza C virus ; read by: plaque count ; endpoint: EC50 ; result: 0.057 µg/mL
Brc1cc(-c2cccs2)sc1-c1cccs1 ; cells: 3T3-L1 ; agent: Mouse cytomegalovirus ; read by: plaque count ; endpoint: EC50 ; result: 0.281 µg/mL
OC[C@H]1O[C@@H](n2cnc3c(NC4CC4)cc(Cl)nc32)C[C@@H]1O ; cells: Sheep chondrocytes G81092 ; strain or isolate: KV1772 ; agent: Maedi-visna virus ; read by: cytopathic effect ; endpoint: EC50 ; result: 2.7 µM